Measured values published in the supplement of paper PMC3578754.
Fold change is the IC50 on the isolate divided by the IC50 on a reference virus; 1 = unchanged, higher = more resistant. Changes are given against the subtype B consensus. No active / inactive call. The values were gathered from many studies (numbered anew) with different assays, which the source does not name. Most viruses are clinical isolates; some are laboratory strains or clones with known resistance changes. Isolates with mixed residues are left out; stretches that were not sequenced show no change. Round top values that many isolates share are read here as limits; other very high values and 0.1 may be limits too.

Legend:
Experiment in all cases: fold change of IC50 against reference virus; higher = more resistant
emtricitabine = compound: Nc1nc(=O)n([C@@H]2CS[C@H](CO)O2)cc1F [emtricitabine]
Experimental: (§1)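 Cell-culture drug susceptibility tests of virus bearing the reverse transcriptase of each isolate, gathered from many studies.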

zidovudine = compound: Cc1cn([C@H]2C[C@H](N=[N+]=[N-])[C@@H](CO)O2)c(=O)[nH]c1=O [zidovudine]
Experimental: as §1

delavirdine = compound: CC(C)Nc1cccnc1N1CCN(C(=O)c2cc3cc(NS(C)(=O)=O)ccc3[nH]2)CC1 [delavirdine]
Experimental: as §1

stavudine = compound: Cc1cn([C@H]2C=C[C@@H](CO)O2)c(=O)[nH]c1=O [stavudine]
Experimental: as §1

abacavir = compound: Nc1nc(NC2CC2)c2ncn([C@H]3C=C[C@@H](CO)C3)c2n1 [abacavir]
Experimental: as §1

efavirenz = compound: O=C1Nc2ccc(Cl)cc2[C@@](C#CC2CC2)(C(F)(F)F)O1 [efavirenz]
Experimental: as §1

didanosine = compound: O=c1[nH]cnc2c1ncn2[C@H]1CC[C@@H](CO)O1 [didanosine]
Experimental: as §1

nevirapine = compound: Cc1ccnc2c1NC(=O)c1cccnc1N2C1CC1 [nevirapine]
Experimental: as §1

tenofovir = compound: C[C@H](Cn1cnc2c(N)ncnc21)OCP(=O)(O)O [tenofovir]
Experimental: as §1

Test System | fold change of IC50 against reference virus (emtricitabine) | fold change of IC50 against reference virus (zidovudine) | fold change of IC50 against reference virus (delavirdine) | fold change of IC50 against reference virus (stavudine) | fold change of IC50 against reference virus (abacavir) | fold change of IC50 against reference virus (efavirenz) | fold change of IC50 against reference virus (didanosine) | fold change of IC50 against reference virus (nevirapine) | fold change of IC50 against reference virus (tenofovir)
HIV-1 isolate 244 (reverse transcriptase changes: V21I V35M K43Q D67G S68G K70R V90I K104N I135T E138Q S162A M184V T215F K219Q A272P K277R T286A E297K, study 15) | ≥ 200 | 65 | 5.3 | 1.7 | 6.5 | 1.2 | 2 | 2.8 | 1.7
HIV-1 isolate 654 (reverse transcriptase changes: V35I V118I D123E D177E R211K F214L V245M E248D D250E A288S, study 15) | 1 | 0.9 | 1.1 | 1.2 | 1 | 0.8 | 1.1 | 0.8 | 0.8
HIV-1 isolate 378 (reverse transcriptase changes: D121Y K122E D177E A272P K281R L283I A288T T296S, study 15) | 1.2 | 1 | 3.6 | 1 | 1.1 | 1.9 | 1.1 | 1.8 | 1.1
HIV-1 isolate 1572 (reverse transcriptase changes: M41L K43Q K49R V60I D67N R83K K101E D123E V179I M184V G190S R211K T215F M230L D237E A272P T286A E297K, study 15) | ≥ 200 | 40 | 5.7 | 1.9 | 5.5 | ≥ 500 | 1.4 | 300 | 1.6
HIV-1 isolate 1073 (reverse transcriptase changes: E6K K20R V35M T39A M41L G45E D67N T69D V118I K122E D123E M184V L210W R211K T215Y L228F A272P L282K E297K, study 15) | 300 | 2.7 | 0.1 | 2.7 | 6.2 | 0.2 | 1.9 | 0.2 | 0.9
HIV-1 isolate 1538 (reverse transcriptase changes: V35I T69I R83K K122E D123S I135V S163T E169D D177E I178M V179I M184V R211K V245K E248D A272P K275R R284K, study 15) | 300 | 0.4 | 0.8 | 0.7 | 2.7 | 0.8 | 1.4 | 0.8 | 0.4
HIV-1 isolate 691 (reverse transcriptase changes: M41L V60I D67N K70R K122E D123S I135V K166R D177E T200I E203D R211K F214L T215F D218E K219Q L228H V245M A272P, study 15) | 6.4 | 490 | 0.4 | 2.6 | 3.6 | 0.3 | 2 | 0.3 | 5.5
HIV-1 isolate 66 (reverse transcriptase changes: T69S K70R A98S K103N K122E I135L Q174H D177G V179I Y188L T200A I202V R211K F214L K219Q A272P E297A, study 15) | 1.1 | 11 | 500 | 1.1 | 1.4 | ≥ 500 | 0.9 | 500 | 1.8
HIV-1 isolate 1130 (reverse transcriptase changes: V35I I135L I142V Q145E M184V T200A R211K D250E T286A E297R L301I, study 15) | 300 | 0.5 | 2.3 | 0.9 | 4.1 | 1.4 | 1.5 | 1.2 | 0.6
HIV-1 isolate 1088 (reverse transcriptase changes: K64R K103N K122P I135T D177E P225H E248D T286A I326V Y342F, study 15) | 1.3 | 2.3 | 110 | 1.3 | 1.1 | 400 | 1.2 | 300 | 1.4
HIV-1 isolate 1111 (reverse transcriptase changes: E6K V35I T39A I47F D67N T69N K70R A98S Y181C T200A R211K F214L T215F D218E K219E E224D L228H V245M T286P, study 15) | 4.5 | 14 | 39 | 2.1 | 2 | 1.1 | 1.6 | 110 | 1.5
HIV-1 isolate 539 (reverse transcriptase changes: P19S K101P K103N E138G E169K K173E D177E I178M V179I G196E V245E A272P E297K, study 15) | 0.6 | 0.3 | 200 | 1 | 0.8 | ≥ 500 | 1 | 300 | 0.7
HIV-1 isolate 130 (reverse transcriptase changes: K20T K49R R83K K122E E138A T200I I202V V245E A272P T296S, study 15) | 1 | 0.7 | 2.5 | 0.8 | 0.8 | 1.4 | 1 | 1.6 | 0.7
HIV-1 isolate 1063 (reverse transcriptase changes: K43Q K49R D67N K70R K103N D123E I135M M184V T200A R211K K219Q K223R A272P V276I K281R T286A, study 15) | ≥ 200 | 5.7 | 107 | 1.6 | 3.7 | 13 | 1.4 | 40 | 1.2
HIV-1 isolate 1525 (reverse transcriptase changes: S3N V21A E28A T39I L74V Y115F K122E D123E I135T M184V G190S G196E F214L A272P L283I E297V, study 15) | 300 | 0.6 | 3.2 | 1.2 | 20 | ≥ 500 | 2.9 | 500 | 0.7
HIV-1 isolate 848 (reverse transcriptase changes: Y188L T215Y, study 15) | 2.7 | 5.7 | 2.1 | 1.6 | 2.1 | 20 | 1.2 | 300 | 1.4
HIV-1 isolate 698 (reverse transcriptase changes: K64R D67N K70R I135T V179I M184V Q197K T200A Q207D R211K T215Y K219E V245K K277R I293V, study 15) | ≥ 200 | 16 | 0.6 | 1.4 | 6 | 0.4 | 1.2 | 0.5 | 1.2
HIV-1 isolate 1644 (reverse transcriptase changes: K11R K20R S68G R83K V118I D123E T165A D177E M184V T200I R211K F214L T215Y Q278E L283I V292I E297R, study 15) | 300 | 1.3 | 0.2 | 0.9 | 2.8 | 0.2 | 1.2 | 0.2 | 0.5
HIV-1 isolate 909 (reverse transcriptase changes: V35I K101Q K103N K122E I135K G196E V245E E248D A272P E297R, study 15) | 0.9 | 1.3 | 91 | 1 | 1.2 | 68 | 1.2 | 94 | 1
HIV-1 isolate 1163 (reverse transcriptase changes: K43Q K49R K70R K103N D123E I135M M184V T200A R211K K219Q K223R A272P K275I K281R T286A, study 15) | ≥ 200 | 2.7 | 75 | 1 | 2.9 | 8.7 | 1.3 | 25 | 0.7
HIV-1 isolate 636 (reverse transcriptase changes: K32R V35E M41L T69A R83K K101H D123E I142V M164I K166R E169D I178M Y181C M184V H221Y L228H V241I A272S K277R E297K, study 15) | ≥ 200 | 0.5 | 200 | 0.8 | 2.4 | 13 | 1.7 | 300 | 0.6
HIV-1 isolate 1048 (reverse transcriptase changes: V35I D67N T69D K70R K103N K122E I135L D177G Y181C T200A H208Y R211K T215F D218E K219Q A272P L283I I293V E297R, study 65) | 4.3 | 9.1 | ≥ 250 | 1.6 | 1.3 | 29 | 0.9 | ≥ 400 | 0.9
HIV-1 isolate 733 (reverse transcriptase changes: V35I K102R D121H K122E I135V S162C D177E I178L Y188H A272S I293V, study 15) | 0.9 | 2.5 | 12 | 0.8 | 0.7 | 7.3 | 0.6 | 3.6 | 1.1
HIV-1 isolate 1636 (reverse transcriptase changes: A98S V106A I135T Q197P R211G F214L A272P T286A E297R, study 15) | 0.8 | 1.2 | 17 | 1.1 | 0.9 | 2.5 | 0.9 | 150 | 0.9
HIV-1 isolate 1370 (reverse transcriptase changes: E28A M41L V60I D67G S68G K70R L74V K101E K122E I135T I178M Y181V G190A T215Y K219E, study 83) | 4.2 | 177 | ≥ 250 | 2.9 | 4.9 | 700 | 1.6 | ≥ 400 | 2.2
HIV-1 isolate 1630 (reverse transcriptase changes: R83K K101E D123E I202V A272P K281R P294T E297R, study 15) | 0.7 | 0.9 | 3.2 | 0.9 | 0.7 | 3.6 | 0.7 | 6.2 | 0.9
HIV-1 isolate 7 (reverse transcriptase changes: D67G S68G K70R V108I D123E I135T I142V D177E M184V T200A R211K T215F K219E E297K, study 15) | ≥ 200 | 23 | 1.6 | 1.4 | 5 | 2.1 | 1.4 | 2.9 | 1.2
